Results of unrelated studies side by side (data: NIAID ChemDB).

All rows: whole-cell or culture tests; organism: Varicella zoster virus; cell line: HEL; read-out: EC50

Lines come from different laboratories, so protocols vary. ECn: concentration that inhibits the pathogen or its effect by n%. a–b is a range or a potency band.

{"SMILES": "O=c1nc2oc(CCCCCCCCCBr)cc2cn1[C@H]1C[C@H](O)[C@@H](CO)O1", "strain or isolate": "YS", "read by": "plaque count", "value": "0.03 µM"}
{"SMILES": "CC1(C)[C@@H](CO)CC[C@@]1(C)Cn1cc(Br)c(=O)[nH]c1=O", "strain or isolate": "07/1 (TK-)", "read by": "cytopathic effect", "value": ">50 µg/mL"}
{"SMILES": "Nc1nc(F)nc2c1ncn2[C@@H]1C=C(CO)[C@@H](O)[C@H]1O", "strain or isolate": "07/1 YS/R (TK-)", "read by": "cytopathic effect", "value": "2 µg/mL"}
{"SMILES": "O=c1[nH]c(=O)n([C@H]2C[C@H](O)[C@@H](CO)O2)cc1-c1cc(-c2ccccc2)no1", "strain or isolate": "OKA", "read by": "plaque count", "value": "38 µg/mL"}
{"SMILES": "Nc1ccn(C[C@@H](CO)OCP(=O)(O)O)c(=O)n1", "strain or isolate": "13 isolates", "read by": "plaque count", "value": "0.6 µM"}
{"SMILES": "CCCCCCc1cc2cn([C@H]3C[C@H](O)[C@@H](CO)O3)c(=O)nc2[nH]1", "strain or isolate": "YS", "read by": "plaque count", "value": ">50 µM"}
{"SMILES": "CCCCCc1ccc(-c2cc3cn([C@H]4C[C@H](Cl)[C@@H](CO)O4)c(=O)nc3o2)cc1", "value": ">5 µM"}
{"SMILES": "O=C(O)P(=O)(O)O", "strain or isolate": "OKA (TK+)", "read by": "plaque count", "value": "67 µM"}
{"SMILES": "OC[C@H]1O[C@@H](c2cc(C(O)C(Br)Br)c(F)cc2F)C[C@@H]1O", "strain or isolate": "07/1 (TK-)", "read by": "plaque count", "value": ">200 µg/mL"}
{"SMILES": "Nc1nc2c(ncn2C[C@H]2CCC[C@H]2CO)c(=O)[nH]1", "strain or isolate": "OKA (TK+)", "read by": "plaque count", "value": ">50 µg/mL"}
{"SMILES": "NC1=NC2C(C=CN2CC(CO)CCO)C(=O)N1", "strain or isolate": "YS/R (TK-)", "read by": "plaque count", "value": "24.6 µM"}
{"SMILES": "NC1=NC2C(C=CN2CC(CO)CCO)C(=O)N1", "strain or isolate": "YS", "read by": "cytopathic effect", "value": "0.01 µg/mL"}
{"SMILES": "O=c1[nH]c(=O)n([C@H]2C[C@H](O)[C@@H](CO)O2)cc1/C=C/Br", "strain or isolate": "YS", "read by": "cytopathic effect", "value": "0.01 µM"}
{"SMILES": "Nc1ncc2ncn([C@H]3CCC[C@H]3CO)c2n1", "strain or isolate": "07/1 (TK-)", "read by": "plaque count", "value": ">20 µg/mL"}
{"SMILES": "CCCCCCCCc1cc2cn([C@@H]3O[C@H](CO)[C@@H](O)[C@H]3O)c(=O)nc2o1", "read by": "plaque count", "value": "23 µM"}
{"SMILES": "O=c1[nH]c(=O)n([C@H]2C[C@H](O)[C@@H](CO)O2)cc1/C=C/Br", "strain or isolate": "ULF PE 9/84 (TK+)", "value": "0.6–0.9 µM"}
{"SMILES": "Cc1nc([N+](=O)[O-])c(N2CCCC2)n1Cc1ccc(Cl)cc1", "strain or isolate": "OKA (TK+)", "read by": "cytopathic effect", "value": "2 µg/mL"}
{"SMILES": "COC(=O)[C@H](C)NP(=O)(OC[C@H]1O[C@@H](n2cc(/C=C/Br)c(=O)[nH]c2=O)C[C@@H]1O)Oc1ccccc1", "strain or isolate": "OKA", "read by": "cytopathic effect", "value": "0.05 µM"}
{"SMILES": "Nc1ncnc2c1ncn2CC[C@H](O)CCO", "strain or isolate": "07/1 (TK-)", "read by": "cytopathic effect", "value": ">400 µg/mL"}
{"SMILES": "Nc1nc2c(ncn2COC(CO)CO)c(=O)[nH]1", "strain or isolate": "YS (TK+)", "read by": "plaque count", "value": "2.05 µM"}
{"SMILES": "Nc1nc(=O)n([C@H]2C[C@H](O)[C@@H](CO)O2)cc1/C=C/Cl", "strain or isolate": "YS", "read by": "plaque count", "value": "0.015 µg/mL"}
{"SMILES": "CC(=O)OCCOCN1c2nc(Cc3ccccc3)[nH]c2C(N)=NS1(=O)=O", "strain or isolate": "OKA", "read by": "plaque count", "value": ">50 µg/mL"}
{"SMILES": "CCCCCc1ccc(-c2cc3cn(C4CC[C@@H](CO)O4)c(=O)nc3o2)cc1", "strain or isolate": "YS (TK+)", "read by": "plaque count", "value": "1.5 µM"}
{"SMILES": "O=c1nc2oc(CCCCCCCCCCl)cc2cn1[C@H]1C[C@H](O)[C@@H](CO)O1", "strain or isolate": "YS", "read by": "plaque count", "value": "0.02 µM"}
{"SMILES": "Nc1nc2c(ncn2CC[C@H](O)CO)c(=O)[nH]1", "strain or isolate": "TK-", "value": ">250 µM"}
{"SMILES": "CCCc1ccc(-c2cc3cn(C4CC[C@@H](CO)O4)c(=O)nc3o2)cc1", "strain or isolate": "OKA (TK+)", "read by": "plaque count", "value": ">50 µM"}
{"SMILES": "O=c1[nH]c(=O)n([C@H]2C[C@H](O)[C@@H](CCl)O2)cc1I", "value": ">5 µM"}
{"SMILES": "Nc1nc2c(ncn2COC(CO)CO)c(=O)[nH]1", "strain or isolate": "Oka CF1742-resistant", "read by": "cytopathic effect", "value": "6 µM"}
{"SMILES": "Nc1nc(=O)n([C@H]2C[C@H](O)[C@@H](CO)O2)cc1/C=C\\Cl", "strain or isolate": "YS/R (TK-)", "read by": "plaque count", "value": ">40 µg/mL"}
{"SMILES": "O=C(O)CP(=O)(O)O", "strain or isolate": "13 isolates", "read by": "plaque count", "value": "64.1 µM"}
{"SMILES": "O=c1c2ncn(COC(CO)CO)c2nc2[nH]c(-c3ccccc3)cn12", "strain or isolate": "07/1 (TK-)", "read by": "plaque count", "value": "3 µg/mL"}
{"SMILES": "Nc1nc(=O)n([C@H]2C[C@H](O)[C@@H](CO)O2)cc1/C=C/Cl", "strain or isolate": "13 isolates", "read by": "plaque count", "value": "0.028 µM"}
{"SMILES": "Nc1ncc2ncn(C[C@H]3CCC[C@H]3CO)c2n1", "strain or isolate": "OKA (TK+)", "read by": "plaque count", "value": ">20 µg/mL"}
{"SMILES": "CC1(C)[C@@H](CO)CC[C@@]1(C)Cn1nnc2c(Cl)ncnc21", "strain or isolate": "YS/R (TK-)", "read by": "cytopathic effect", "value": ">50 µg/mL"}
{"SMILES": "O=c1nc2oc(CCCCCCCCCI)cc2cn1[C@H]1C[C@H](O)[C@@H](CO)O1", "strain or isolate": "YS", "read by": "plaque count", "value": "0.03 µM"}
{"SMILES": "CCCCCCCCc1cc2cn([C@H]3C[C@H](O)[C@@H](CCl)O3)c(=O)nc2o1", "value": ">5 µM"}
{"SMILES": "Nc1ccn(C[C@@H](CO)OCP(=O)(O)O)c(=O)n1", "strain or isolate": "OKA YS", "read by": "plaque count", "value": "0.23 µM"}
{"SMILES": "CCCCc1ccc(-c2cc3cn(C4CC[C@@H](CO)O4)c(=O)nc3o2)cc1", "strain or isolate": "07/1 (TK-)", "read by": "plaque count", "value": ">5 µM"}
{"SMILES": "Nc1nc2c(ncn2CCC(CO)CO)c(=O)[nH]1", "strain or isolate": "Clinical isolate VZV-26", "read by": "cytopathic effect", "value": "3.54 µM"}
{"SMILES": "Nc1nc2c(ncn2CCC(CO)CO)c(=O)[nH]1", "strain or isolate": "OKA (TK+)", "read by": "plaque count", "value": "2.9 µM"}
{"SMILES": "Nc1ncnc2c1ccn2[C@@H]1C[C@H](O)[C@@H](O)[C@H]1O", "strain or isolate": "YS", "value": ">50 µg/mL"}
{"SMILES": "O=C(O)P(=O)(O)O", "strain or isolate": "Oka CF1368-resistant", "read by": "cytopathic effect", "value": "38.6 µM"}
{"SMILES": "CCCCCCCCc1cc2cn([C@H]3C[C@H](O)[C@@H](CO)O3)c(=O)nc2[nH]1", "strain or isolate": "YS", "read by": "plaque count", "value": "0.48 µM"}
{"SMILES": "O=c1[nH]c(=O)n([C@@H]2O[C@H](CO)[C@@H](O)[C@@H]2O)cc1/C=C/Br", "strain or isolate": "YS (TK+)", "read by": "plaque count", "value": "0.000024 µM"}
{"SMILES": "Nc1ncnc2c1ncn2[C@@H]1C[C@H](CO)[C@@H](O)[C@@H]1O", "strain or isolate": "TK-", "value": "≤50 µM"}
{"SMILES": "CO[C@H](CO)[C@@H](O)CCn1cnc2c(N)ncnc21", "strain or isolate": "07/1 (TK-)", "read by": "cytopathic effect", "value": ">400 µg/mL"}
{"SMILES": "CC1(C)[C@@H](CO)CC[C@@]1(C)Cn1nnc2c(=O)[nH]cnc21", "strain or isolate": "OKA", "read by": "cytopathic effect", "value": ">50 µg/mL"}
{"SMILES": "CO[C@H](CO)[C@@H](O)CCn1cnc2c(=O)[nH]c(N)nc21", "strain or isolate": "OKA", "read by": "cytopathic effect", "value": ">400 µg/mL"}
{"SMILES": "Nc1ccn(C[C@@H](CO)OCP(=O)(O)O)c(=O)n1", "strain or isolate": "Oka PFA-resistant/A", "read by": "cytopathic effect", "value": "0.44 µM"}
{"SMILES": "CC(C)(C)c1cn([C@H]2C[C@H](O)[C@@H](CO)O2)c(=O)[nH]c1=O", "strain or isolate": "OKA YS", "read by": "plaque count", "value": ">170 µM"}
{"SMILES": "O=c1[nH]c(=O)n(C[C@]2(CO)C[C@H]2CO)cc1/C=C/Br", "strain or isolate": "Kawaguchi", "read by": "plaque count", "value": "0.67 µg/mL"}
{"SMILES": "CC1(C)[C@@H](CCO)C[C@H]1n1nnc2c(=O)[nH]c(N)nc21", "strain or isolate": "(TK+)/OKA", "read by": "plaque count", "value": ">50 µg/mL"}
{"SMILES": "Nc1nc2c(ncn2CCC(CO)CO)c(=O)[nH]1", "strain or isolate": "OKA (TK+)", "read by": "plaque count", "value": "0.6 µg/mL"}
{"SMILES": "Nc1ccn(C(CF)CCCO)c(=O)n1", "strain or isolate": "OKA", "read by": "cytopathic effect", "value": ">50 µg/mL"}
{"SMILES": "CC1(C)[C@@H](CO)CC[C@@]1(C)Cn1cnc2c(N)ncnc21", "strain or isolate": "07/1 (TK-)", "read by": "cytopathic effect", "value": ">50 µg/mL"}
{"SMILES": "Nc1ccn(CCCC(O)CF)c(=O)n1", "strain or isolate": "YS/R (TK-)", "read by": "cytopathic effect", "value": ">50 µg/mL"}
{"SMILES": "CCC/C=C/c1cccc(-c2cc3cn([C@H]4C[C@H](O)[C@@H](CO)O4)c(=O)nc3o2)c1", "value": ">12 µM"}
{"SMILES": "Nc1nc2c(ncn2C[C@]2(CO)C[C@H]2CO)c(=O)[nH]1", "strain or isolate": "YS (TK+)", "read by": "plaque count", "value": "0.04 µg/mL"}
{"SMILES": "Nc1nc2c(ncn2CCCC(O)CF)c(=O)[nH]1", "strain or isolate": "OKA", "read by": "cytopathic effect", "value": ">50 µg/mL"}
{"SMILES": "CO[C@H](CO)[C@@H](O)CCn1ccc(N)nc1=O", "strain or isolate": "07/1 (TK-)", "read by": "cytopathic effect", "value": ">400 µg/mL"}
{"SMILES": "Nc1nc2c(ncn2COC(CO)CO)c(=O)[nH]1", "strain or isolate": "OKA YS", "read by": "plaque count", "value": "0.95 µM"}

Again, the opening 5 rows:

SMILES,strain or isolate,read by,value
O=c1nc2oc(CCCCCCCCCBr)cc2cn1[C@H]1C[C@H](O)[C@@H](CO)O1,YS,plaque count,0.03 µM
CC1(C)[C@@H](CO)CC[C@@]1(C)Cn1cc(Br)c(=O)[nH]c1=O,07/1 (TK-),cytopathic effect,>50 µg/mL
Nc1nc(F)nc2c1ncn2[C@@H]1C=C(CO)[C@@H](O)[C@H]1O,07/1 YS/R (TK-),cytopathic effect,2 µg/mL
O=c1[nH]c(=O)n([C@H]2C[C@H](O)[C@@H](CO)O2)cc1-c1cc(-c2ccccc2)no1,OKA,plaque count,38 µg/mL
Nc1ccn(C[C@@H](CO)OCP(=O)(O)O)c(=O)n1,13 isolates,plaque count,0.6 µM